Test system: Nc1ncnc2c1ncn2[C@@H]1O[C@H](COP(=O)(O)OP(=O)(O)OP(=O)(O)O)[C@@H](O)[C@H]1O
Test: purified protein

## DotBL (Legionella pneumophila)
  Km: 990 ± 300 µM

Reference: paper PMC6153414 (Protein Science : A Publication of the Protein Society, 2018)
